{"source": "PubChem BioAssay AID504761 (Drosophila RNAi Screening Center, 2011)", "test": "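Genome-wide fly cell screen for genes dengue virus requires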 (primary screen)", "cell system": "D.Mel-2 cells from Drosophila", "knock-down reagent": "long dsRNA against Drosophila genes", "challenge": "infection with dengue virus type 2; dose and infection time not stated", "read-out": "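Per well on two replicate plates, imaging gave the percent of cells positive for viral envelope protein, ranked by infection, and a nuclear count of cells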", "direction": "infection score: higher = more virus-infected cells; cell count: higher = more cells in the well", "call rule": "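Very low infection ranking in both replicate wells (chance probability at most 0.065), then a retest showing infection dropped 1.5-fold or more at p below 0.05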", "meaning of the calls": "active = confirmed: knock-down lowers infection; inactive = not picked or not confirmed", "note": "In all, the deposit lists about 22,000 reagents; below is an unselected part of those that have a named target and a result. Over the whole deposit, 116 (0.52%) are marked active. 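Calls depend on retest data that are not deposited; infection was ranked per plate without normalising between plates; the unit of the infection score is not given.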 The raw values are shown without normalisation. A number with no mark means an inactive call. The numbers tell different reagents against one gene apart. Not given: the amount of reagent, the time to read-out."}
{"Target gene": "boly (GeneID 35809)", "reagent": 1, "infection score, replicate 1": 0.66, "infection score, replicate 2": 10.1, "cell count, replicate 1": 5799, "cell count, replicate 2": 5485}
{"Target gene": "CG31473 (GeneID 318753)", "reagent": 1, "infection score, replicate 1": 7.51, "infection score, replicate 2": 8.86, "cell count, replicate 1": 5949, "cell count, replicate 2": 6217}
{"Target gene": "CG31473 (GeneID 318753)", "reagent": 2, "infection score, replicate 1": 12.3, "infection score, replicate 2": 9.23, "cell count, replicate 1": 4328, "cell count, replicate 2": 6113}
{"Target gene": "GNBP3 (GeneID 39020)", "reagent": 1, "infection score, replicate 1": 1.3, "infection score, replicate 2": 2.31, "cell count, replicate 1": 6408, "cell count, replicate 2": 6537}
{"Target gene": "CG1307 (GeneID 40814)", "reagent": 1, "infection score, replicate 1": 23.5, "infection score, replicate 2": 14.4, "cell count, replicate 1": 5152, "cell count, replicate 2": 5838}
{"Target gene": "CG3149 (GeneID 31489)", "reagent": 1, "infection score, replicate 1": 1.8, "infection score, replicate 2": 3.06, "cell count, replicate 1": 6787, "cell count, replicate 2": 7102}
{"Target gene": "CG3149 (GeneID 31489)", "reagent": 2, "infection score, replicate 1": 8.69, "infection score, replicate 2": 13.1, "cell count, replicate 1": 5837, "cell count, replicate 2": 6977}
{"Target gene": "CG15293 (GeneID 34828)", "reagent": 1, "infection score, replicate 1": 20.6, "infection score, replicate 2": 4.71, "cell count, replicate 1": 5662, "cell count, replicate 2": 849}
{"Target gene": "mira (GeneID 42379)", "reagent": 1, "infection score, replicate 1": 5.25, "infection score, replicate 2": 2.56, "cell count, replicate 1": 6672, "cell count, replicate 2": 6222}
{"Target gene": "mira (GeneID 42379)", "reagent": 2, "infection score, replicate 1": 5.53, "infection score, replicate 2": 7.36, "cell count, replicate 1": 5845, "cell count, replicate 2": 6048}
{"Target gene": "phr (GeneID 35735)", "reagent": 1, "infection score, replicate 1": 10.8, "infection score, replicate 2": 15.4, "cell count, replicate 1": 6071, "cell count, replicate 2": 5499}
{"Target gene": "Rab14 (GeneID 34840)", "reagent": 1, "infection score, replicate 1": 11.6, "infection score, replicate 2": 8.05, "cell count, replicate 1": 6012, "cell count, replicate 2": 5792}
{"Target gene": "Rab14 (GeneID 34840)", "reagent": 2, "cell count, replicate 1": 289, "cell count, replicate 2": 393}
{"Target gene": "CG33306 (GeneID 2768915)", "reagent": 1, "infection score, replicate 1": 11.7, "infection score, replicate 2": 15.7, "cell count, replicate 1": 5864, "cell count, replicate 2": 5919}
{"Target gene": "CG33306 (GeneID 2768915)", "reagent": 2, "infection score, replicate 1": 15.3, "infection score, replicate 2": 13, "cell count, replicate 1": 5973, "cell count, replicate 2": 5952}

Limited to “cell count, replicate 2” (2 entries from above):
phr (GeneID 35735): 5499
Rab14 (GeneID 34840) #1: 5792
